What was measured:
[1] = tested on: Plasmodium falciparum 3D7 Strain; experiment: Antiplasmodial SYBR Green I assay, chloroquine-sensitive 3D7 strain; format: cell-based
[2] = tested on: Plasmodium falciparum W2 Strain; experiment: Antiplasmodial SYBR Green I assay, chloroquine-resistant W2 strain; format: cell-based

Substance | activity against 3D7 strain, in words [1] | activity against W2 strain, in words [2]
2-(2-Chlorophenoxy)-N-(1-benzylpiperidin-4-yl)-N-(3-fluorophenyl) acetamide | good activity | good activity
2-(2-Chlorophenoxy)-N-(3-fluorophenyl)-N-(1-(perfluorobenzyl) piperidin-4-yl) acetamide | inactive | inactive
N-(1-(2-Chlorobenzyl)piperidin-4-yl)-2-(2-chlorophenoxy)-N-(3-fluorophenyl) acetamide | good activity | good activity

Source: paper PMC7024169, “Synthesis and Antimalarial Activity of 1,4-Disubstituted Piperidine Derivatives” (Molecules, 2020)
